Pooled drug test results. Numbers come from NIAID ChemDB, via PubChem.

Shared fields: tests in culture; agent: Hepatitis B virus; measure: inhibition

Lines come from different laboratories, so protocols vary.

SMILES | strain | cells | method | tested at | result
CCCCCCC(=O)CCCCCC/C=C/CC(O)C(O)C(N)(CO)C(=O)O |  |  |  | 20 µM | 80%
Nc1nc2c(ncn2CCC(CO)CO)c(=O)[nH]1 | WILD TYPE | HepG2 |  | 5 µM | 41%
COC(=O)[C@]1(C)CC[C@]2(C)CC[C@]3(C)C4=CC=C5C(=CC(=O)C(O)=C5C)[C@]4(C)CC[C@@]3(C)[C@@H]2C1 |  | HepG2 2.2.15 | PCR | 25 µM | 9.8%
CC(C)OC(=O)CCC1COP(=O)(CO[C@H](C)Cn2cnc3c(N)ncnc32)OC1 | Genotype D | HepaRG | PCR | 1 µM | 50–80%
C[C@@H]1CC[C@@]2(OC1)O[C@H]1C[C@H]3[C@@H]4CC=C5C[C@@H](O[C@@H]6O[C@H](CO)[C@H](O[C@@H]7O[C@@H](C)[C@H](O)[C@@H](O)[C@H]7O)[C@@H](O)[C@H]6O[C@@H]6O[C@@H](C)[C@H](O)[C@@H](O)[C@H]6O)CC[C@]5(C)[C@H]4CC[C@]3(C)[C@H]1[C@@H]2C |  | HepG2 2.2.15 | ELISA / antigen | 35 µM | 40%
CCOC(=O)CC1COP(=O)(CO[C@H](C)Cn2cnc3c(NC(C)=O)ncnc32)OC1 | Genotype D | PHH | PCR | 1 µM | ≤30%
CNC(=O)[C@]1(C)CC[C@]2(C)CC[C@]3(C)C4=CC=C5C(=CC(=O)C(O)=C5C)[C@]4(C)CC[C@@]3(C)[C@@H]2C1 |  | HepG2 2.2.15 | PCR | 25 µM | 13.2%
Nc1nc(=O)n([C@@H]2CS[C@H](CO)O2)cc1F |  | HepAD38 |  | 0.3 µM | 90%
CC(C)OC(=O)CC1COP(=O)(CO[C@H](C)Cn2cnc3c(NC(=O)c4ccccc4)ncnc32)OC1 | Genotype D | HepaRG | PCR | 1 µM | ≤30%
CCN(CC)CCOc1ccc2nc(SCc3ccccc3)n(Cc3ccco3)c(=O)c2c1 |  | HepG2 2.2.15 | PCR | 0.8 µM | 67.45%
Nc1ccn([C@@H]2CS[C@H](CO)O2)c(=O)n1 |  | HepG2 2.2.15 | PCR | 25 µM | 89.1%
O=C(N[C@H](CO)Cc1ccccc1)/C(NC(=O)c1ccc(Cl)cc1Cl)=C(/Br)c1ccccc1 |  | HepG2 2.2.15 | PCR | 1 µM | 63.13%
CC(C)OC(=O)CC1COP(=O)(CO[C@H](C)Cn2cnc3c(NC(=O)C(C)C)ncnc32)OC1 | Genotype D | HepaRG | PCR | 1 µM | ≤30%
CC1=C(O)C(=O)C=C2C1=CC=C1[C@@]2(C)CC[C@@]2(C)[C@@H]3C[C@](C)(C(=O)NC(C)C)CC[C@]3(C)CC[C@]12C |  | HepG2 2.2.15 | PCR | 25 µM | 35.2%
CC(C)OC(=O)CC1COP(=O)(CO[C@H](C)Cn2cnc3c(N)ncnc32)OC1 | Genotype D | PHH | PCR | 1 µM | ≤30%
Nc1ncnc2c1ncn2CCOCP(=O)(O)O | WILD TYPE | HepG2 |  | 0.5 µM | 85%
Nc1ccn([C@@H]2CS[C@H](CO)O2)c(=O)n1 |  | HepG2.2.15 | ELISA | 100 µg/mL | 33.56%
O=c1[nH]c(=O)n([C@H]2C[C@H](F)[C@@H](CO)O2)cc1I |  |  |  | 10 µg/mL | 60%
CCCNC(=O)[C@]1(C)CC[C@]2(C)CC[C@]3(C)C4=CC=C5C(=CC(=O)C(O)=C5C)[C@]4(C)CC[C@@]3(C)[C@@H]2C1 |  | HepG2 2.2.15 | PCR | 25 µM | 17.2%
CCC(CCC(C)C1CCC2C3C[C@@H](O)[C@@]4(O)C[C@@H](O)CCC4(C)C3CCC12C)C(C)C |  | HepG2 2.2.15 | antigen | 6.25 µg/mL | 11.4%
CCOC(=O)CCC1COP(=O)(CO[C@H](C)Cn2cnc3c(N)ncnc32)OC1 | Genotype D | HepaRG | PCR | 1 µM | 50–80%

2 of the rows above, restated:

SMILES	strain	cells	method	tested at	result
O=c1[nH]c(=O)n([C@H]2C[C@H](F)[C@@H](CO)O2)cc1I				10 µg/mL	60%
CC1=C(O)C(=O)C=C2C1=CC=C1[C@@]2(C)CC[C@@]2(C)[C@@H]3C[C@](C)(C(=O)NC(C)C)CC[C@]3(C)CC[C@]12C		HepG2 2.2.15	PCR	25 µM	35.2%

a–b is a range or a potency band. Blank or dashed fields: not listed here. Percent inhibition refers to the dose given; in toxicity tests it is the harm to the cells.